Results on one sequence are retold here after patent US20040157314.

The chains behind the UniProt entries cited, without tags or fusion partners. Where a name states a change or a piece, a line headed by the entry shows the natural chain unless it says otherwise.
UniProt P0A0I8: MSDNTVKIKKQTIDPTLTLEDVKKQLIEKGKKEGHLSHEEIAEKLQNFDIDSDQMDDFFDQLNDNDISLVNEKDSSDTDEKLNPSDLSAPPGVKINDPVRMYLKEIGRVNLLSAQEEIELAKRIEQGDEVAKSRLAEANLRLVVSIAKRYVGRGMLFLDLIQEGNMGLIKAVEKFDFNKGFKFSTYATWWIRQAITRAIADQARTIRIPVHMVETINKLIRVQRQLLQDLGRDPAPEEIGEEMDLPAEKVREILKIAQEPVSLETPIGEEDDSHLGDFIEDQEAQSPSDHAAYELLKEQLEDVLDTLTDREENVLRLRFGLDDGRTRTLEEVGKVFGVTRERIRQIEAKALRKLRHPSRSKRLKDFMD

The exact form of at least one protein or probe is not confirmed.

The target in the data set is STAAU_R12 (primary sigma factor SigA) + E. coli core RNA polymerase (Staphylococcus aureus) (UniProt P0A0I8). The data set is described as follows: competition with a labelled probe. The note with it: TR-FRET competition, unlabeled, 0-5 fold molar excess reduced complex; purified recombinant protein.

Take “GATAGAGTTGACATCCCTATCAGTGATAGAGATACTGAGAACATCAGC / GCTGATGTGCTCAGTATCTCTATCACTGATAGGGATGTCAATCTCTATC [lambda PL oligonucleotide]”: the binding result is “binds”.
